# Reference: patent US7550150B2, “Methods of treating or preventing a disease, disorder or condition associated with a viral infection” (Barros Research Institute, priority 2005, dated 2009)
# Like-named read-outs stand apart in the source and are kept apart here. Marks after values point to notes of the source that are not given here.
# Tested on: Influenza A/NWS/33 (H1N1) virus
# Conditions: for Mean Day to Death ± SD: mice dying prior to day 21
# [1] = 20 ng i.p. 4 h pre- and 3 days post-virus
# [2] = 200 ng i.p. 4 h pre- and 3 days post-virus
# [3] = 10 μg i.p. 4 h pre- and 3 days post-virus
Molecule,"Infected, Treated Mice Surv/Total [1]",Mean Day 11 SaO2 (% ± SD) [1] [%],Mean Day to Death ± SD [1] [days],"Infected, Treated Mice Surv/Total [2]",Mean Day 11 SaO2 (% ± SD) [2] [%],Mean Day to Death ± SD [2] [days],"effect of treatment (survivors, mean day to death) (200 and 20 ng/mouse i.p. 4 h pre- and 3 days post-virus)","Infected, Treated Mice Surv/Total [3]",Mean Day 11 SaO2 (% ± SD) [3] [%],Mean Day to Death ± SD [3] [days],"prevented deaths of infected mice (used alone, 10 μg/mouse i.p. 4 h pre- and 3 days post-virus, placebo 15% surviving) [%]"
GM-CSF: Granulocyte macrophage - colony stimulating factor,0/10,75.0 ± 0.0,9.9 ± 1.2,3/10,76.4 ± 2.5,9.6 ± 0.8,No effect,,,,
"rBBX-01: Recombinant Apicomplexa-related protein (ARP) having the sequence of SEQ ID NO:20; termed Barrogen, also called rBBX-01 or E1 (protein, listed as Eimeria tenella) GEEADTQAWDTSVREWLVDTGRVFAGGVASIADGCRLFGAAVEGEGNAWEELVKTNYQIEVPQEDGTSISVDCDEAETLRQAVVDGRAPNGVYIGGTKYKLAEVKRDFTFNDQNYDVAILGKNKGGGFLIKTPNENVVIALYDEEKEQNKADALTTALNFAEYLYQGGF",,,,,,,,6/10*,79.5 ± 4.6,10.8 ± 2.4,60
